Compound potency records, mixed from different reports. Data source: NIAID ChemDB in PubChem.

All rows: cytotoxicity tests; cell line: HFF; read-out: CC50

CCn: concentration that lowers growth or viability of the cells by n%. An empty or dashed field is not shown. Conditions beyond the fields shown may differ between rows.

structure | read by | result
OC[C@H]1O[C@@H](n2c(Br)nc3cc(Cl)c(Cl)cc32)[C@H](O)[C@@H]1O | - | 118 µM
CCOC(=O)C1C(c2ccccc2)CC(c2ccccc2)=CC12NCCN2 | - | 0.1279 µM
OC[C@H]1O[C@@H](n2c(Cl)nc(Cl)c2Cl)[C@H](O)[C@@H]1O | - | >100 µM
O=C1C(c2c(O)[nH]c3ccc(Br)cc23)=Nc2ccccc21 | - | >320 µg/mL
COC(=O)[C@H](C)NP(=O)(OC[C@@H]1C[C@]12C[C@@H]2n1cnc2c(N)ncnc21)Oc1ccccc1 | - | 100 µM
Nc1ccn([C@@H]2C[C@@H](O)[C@H](CO)O2)c(=O)n1 | - | >100 µM
[Cl][Sn]([Cl])([Cl])[c]1ccccc1 | - | 1.1 µg/mL
OC[C@H]1O[C@@H](n2cnc(Cl)c2Cl)[C@H](O)[C@@H]1O | - | >100 µM
O=C1CCCN2C(CC1)C[C@@]13CN4CCCC/C=C/CC[C@@](O)(C=C(c5nccc6c5[nH]c5c(O)cccc56)[C@H]1CC4)[C@@H]23 | - | >10 µM
N#Cc1cn([C@@H]2O[C@H](CO)[C@@H](O)[C@@H]2O)c2ncnc(N)c12 | visual reading | 8 µM
CCOC(=O)c1cc2ccccc2nc1C | - | >300 µM
OC[C@H]1O[C@@H](n2cnc3cc(Cl)c(Cl)cc32)[C@H](O)[C@@H]1O | - | 24 µM
O=C1C(c2c(O)[nH]c3ccccc23)=Nc2ccccc21 | - | >320 µg/mL
Cn1cnc2c(NCc3ccccc3)nc(NCCO)nc21 | visual reading | ≥100 µM
Cc1ccc2c(c1)C(=O)c1nc3ccccc3c(=O)n1-2 | - | >320 µg/mL
Cc1nc2n(c(=O)c1CCN1CCC(c3noc4cc(F)ccc34)CC1)CC(O)CC2 | - | 134 µg/mL
Nc1nc(Cl)nc2c1ncn2/C=C1\CC1CO | - | >100 µM
CC1=C(C(=O)NCc2ccc(F)cc2)OC2OC3(C)CC[C@H]4[C@H](C)CC[C@@H]1[C@@]24OO3 | - | 320 µM
CCCC(CCC)C(=O)O | - | 62.4 µg/mL
NC(=S)c1cn([C@@H]2O[C@H](CO)[C@@H](O)[C@H]2O)c2ncnc(N)c12 | - | 0.32 µM
Nc1c(S(=O)(=O)O)cc(Nc2ccc(S(=O)(=O)O)c(Nc3nc(Cl)nc(Cl)n3)c2)c2c1C(=O)c1ccccc1C2=O | - | 280 µM
OC[C@H]1O[C@@H](n2c(Cl)nc3cc4cc(Cl)c(Cl)cc4cc32)[C@H](O)[C@@H]1O | - | 3.2 µM
NC(=S)c1c(N)n([C@@H]2O[C@H](CO)[C@@H](O)[C@H]2O)c2ncnc(N)c12 | visual reading | 0.6 µM
COc1nc(N)nc2c1ncn2/C=C1/C[C@H]1CO | neutral red | 158 µM
NC(=O)c1c(N)n(COCCO)c2ncnc(N)c12 | visual reading | >100 µM
Nc1ncnc2c1ncn2[C@@H]1CC(F)(F)[C@@H](O)[C@H]1O | - | 84 µM
NC(=S)c1c(N)n(COCCO)c2ncnc(N)c12 | visual reading | >100 µM
CCOC(=O)C1C(c2ccccc2)CC(c2ccc(OC)cc2)=CC12NCCN2 | - | 0.1279 µM
Nc1nc(N)c2ncn(/C=C3/C[C@H]3CO)c2n1 | neutral red | 141 µM
C[C@@H]1CC[C@H]2[C@@H](C)C(=O)O[C@@H]3OC4(C)CC[C@@H]1[C@]32OO4 | - | >320 µg/mL
Nc1ncnc2c1c(Br)cn2COCCO | visual reading | 100 µM
CCCCCCCc1c(C)[nH]c2cc(OC)ccc2c1=O | absorbance | >50 µM
CCOC(=O)C1C(c2ccc(Cl)cc2)CC(c2ccccc2)=CC12NCCN2 | - | 0.1279 µM
COC(=O)[C@H](C)NP(=O)(OC[C@H]1C/C1=C/n1cnc2c(=O)[nH]c(N)nc21)Oc1ccccc1 | - | >206 µM
C[C@H]1CCC/C=C/[C@@H]2C[C@H](O)C[C@H]2[C@@H](O)/C=C/C(=O)O1 | XTT | 146 µM
COC(=O)C(C)NOP(OC[C@H]1C/C1=C/n1cnc2c(N)[nH]c(=O)nc21)Oc1ccccc1 | - | >100 µM
CCCCCCCCCCCCCCCO[P@]1(=O)OC[C@@H]2COC(=O)C2=C(CCCC)O1 | resazurin | >50 µM
OC[C@H]1O[C@@H](n2c(Br)nc(Cl)c2Cl)[C@H](O)[C@H]1O | - | >100 µM
N#Cc1cn([C@@H]2O[C@H](CO)C[C@H]2O)c2ncnc(N)c12 | - | 3 µM
N#Cc1c(Br)n([C@@H]2O[C@H](CO)[C@@H](O)[C@H]2O)c2ncnc(N)c12 | visual reading | 2.5 µM
CC1=CC(S(=O)(=O)O)=C(Nc2cccc3c2C(=O)c2cccc(Nc4ccc(C)cc4S(=O)(=O)O)c2C3=O)CC1 | - | 300 µM
Nc1nc(NC2CC2)c2ncn(/C=C3/C[C@H]3CO)c2n1 | neutral red | 190 µM
Nc1nc2c(ncn2[C@H]2C[C@@]23C[C@H]3CO)c(=O)[nH]1 | - | >100 µM
CCCCCCC[CH2][Sn]([Cl])([Cl])[Cl] | - | 370 µg/mL
Cn1c2ccccc2c2c3c(c4c5ccccc5n(CCC#N)c4c21)CNC3=O | - | >0.1 µM
Nc1ccn([C@@H]2C[C@@H](O)[C@H](CO)O2)c(=O)n1 | - | >60 µM
O=C1C(c2c(O)[nH]c3ccc(F)cc23)=Nc2ccccc21 | - | >320 µg/mL
N#CCCn1c2ccccc2c2c3c(c4c5ccccc5[nH]c4c21)C(=O)NC3 | - | >0.1 µM
OC[C@H]1O[C@@H](n2c(Cl)nc3cc(Cl)c(Cl)cc32)[C@H](O)[C@@H]1O | - | 238 µM
CC[C@@]1(C)NC(=O)[C@H](CCCCCC(=O)[C@H](C)OC(=S)Oc2ccccc2)NC(=O)[C@H]2C[C@H](C)CN2C(=O)C(Cc2ccccc2)NC1=O | - | 0.539 µM
CCC[CH2][Sn+2][CH2]CCC | - | 1.2 µg/mL
COC(=O)C(C)NP(=O)(OC[C@@H]1C/C1=C/n1cnc2c(N)nc(N)nc21)Oc1ccccc1 | neutral red | 152 µM
OCCOCn1c(Br)nc(Cl)c1Cl | - | >100 µM
CCCCCC[CH2][Sn]([Cl])([Cl])[CH2]CCCCCC | - | 29 µg/mL
COC(=O)[C@H](C)NP(=O)(OC[C@@H]1C[C@]12C[C@@H]2n1cnc2c(N)ncnc21)Oc1ccccc1 | - | 100 µM
Nc1nc(NC2CC2)c2ncn(C=C3CC3CO)c2n1 | neutral red | 222 µM
CCOC(=O)C1C(c2ccccc2)CC(c2ccc(Cl)cc2)=CC12NCCN2 | - | 0.1279 µM
O=C1c2cc(I)ccc2-n2c1nc1ccccc1c2=O | - | >320 µg/mL
NC(=O)c1c(Br)n([C@@H]2O[C@H](CO)[C@@H](O)[C@H]2O)c2ncnc(N)c12 | visual reading | 10 µM
CCC(=O)CCCCC[C@@H]1NC(=O)[C@H]2C[C@H](C)CN2C(=O)C(Cc2ccccc2)NC(=O)[C@@](C)(CC)NC1=O | - | >2000 µM
Nc1nc2c(ncn2[C@H]2C[C@]23C[C@@H]3CO)c(=O)[nH]1 | - | >100 µM
OC[C@H]1O[C@@H](n2c(Cl)nc3nc4cc(Cl)c(Cl)cc4cc32)[C@H](O)[C@@H]1O | - | 21 µM
NC(=O)c1cn([C@H]2C[C@H](O)[C@@H](CO)O2)c2ncnc(N)c12 | - | 32 µM
OC[C@H]1O[C@@H](n2c(Cl)nc3cc(Cl)ccc32)[C@H](O)[C@@H]1O | visual reading | >100 µM
OCC1OC(n2c(SCc3ccccc3)nc3nc4cc(Cl)c(Cl)cc4nc32)C(O)C1O | visual reading | 20 µM
CC1=C(CC/C(C)=C/CC[C@@]2(C)CC[C@@H]([C@@H](C)C(=O)O)OO2)C(C)(C)CCC1 | - | <0.392 µM
CC1=C(C(=O)NCc2ccc(C(F)(F)F)cc2)OC2OC3(C)CC[C@H]4[C@H](C)CC[C@@H]1[C@@]24OO3 | - | 169 µM
CC(C)=CCC[C@@H](C)CCCC[C@H]1O[C@@H]2OC3(C)CC[C@H]4[C@H](C)CC[C@@H]([C@H]1C)[C@@]24OO3 | - | 510 µg/mL
N#Cc1cn([C@H]2CC[C@@H](CO)O2)c2ncnc(N)c12 | - | >100 µM
CC[C@]1(C)NC(=O)[C@H](CCCCCC(=O)[C@H](C)O)NC(=O)[C@H]2C[C@H](C)CN2C(=O)C(Cc2ccccc2)NC1=O | - | 0.1279 µM
N#Cc1cn([C@@H]2O[C@H](CO)[C@@H](O)[C@@H]2Br)c2ncnc(N)c12 | - | 181 µM
C=C1[C@H](CO)[C@@H](O)C[C@@H]1n1cnc2c(=O)[nH]c(N)nc21 | - | >90 µM
Nc1nc2c(ncn2/C=C2/C[C@H]2CO)c(=O)[nH]1 | neutral red | >429 µM
OC[C@H]1O[C@@H](n2cnc3nc4cc(Cl)c(Cl)cc4cc32)[C@H](O)[C@@H]1O | - | >100 µM
O=C1c2cc(Br)ccc2-n2c1nc1ccccc1c2=O | - | >320 µg/mL
Nc1nc2c(ncn2[C@H]2C[C@@]23C[C@@H]3CO)c(=O)[nH]1 | - | >100 µM
C[C@H]1[C@@H](CCCC(=O)c2ccccc2)O[C@@H]2OC3(C)CC[C@H]4[C@H](C)CC[C@@H]1[C@@]24OO3 | - | >320 µg/mL
[N-]=[N+]=N[C@H]1[C@H](O)[C@@H](CO)O[C@H]1n1cc(C(N)=O)c2c(N)ncnc21 | - | 66 µM
CC[C@H]1OC(=O)[C@H](C)C(=O)[C@H](C)[C@@H](O[C@@H]2O[C@H](C)C[C@H](N(C)C)[C@H]2O)[C@](C)(OC)C[C@@H](C)C(=O)[C@H](C)[C@H]2N(NCCCc3ccnc4ccccc34)C(=O)O[C@]12C | - | >5 µg/mL
N#Cc1cn([C@H]2C=C[C@@H](CO)O2)c2ncnc(N)c12 | - | >100 µM
OC[C@H]1O[C@@H](n2c(NC3CC3)nc3nc4cc(Cl)c(Cl)cc4cc32)[C@H](O)[C@@H]1O | - | >100 µM
COC(=O)C(C)NP(=O)(OC[C@H]1C/C1=C/n1cnc2c(N)nc(N)nc21)Oc1ccccc1 | neutral red | 57 µM
NC(=O)c1cn([C@@H]2O[C@H](CO)[C@@H](O)[C@@H]2O)c2ncnc(N)c12 | - | 10 µM
CC(=O)Nc1ccc(Nc2cc(S(=O)(=O)O)c(N)c3c2C(=O)c2ccccc2C3=O)cc1 | - | 380 µM
OC[C@H]1O[C@@H](n2c(Cl)nc(Cl)c2Cl)[C@H](O)[C@H]1O | - | >100 µM
O=C1C(c2c(O)[nH]c3ccc(S(=O)(=O)O)cc23)=Nc2ccccc21 | - | >320 µg/mL
Nc1nc(N)c2ncn(/C=C3/C[C@@H]3CO)c2n1 | neutral red | 298 µM
COc1nc(N)nc2c1ncn2C=C1CC1CO | - | >404 µM
Nc1ncnc2c1c(Br)cn2[C@@H]1O[C@H](CO)[C@@H](O)[C@H]1O | visual reading | 1.2 µM
OCCOCCN1CCN(C2=Nc3ccccc3Sc3ccccc32)CC1 | - | 33 µg/mL
COC(=O)[C@H](C)NP(=O)(OC[C@H]1C/C1=C\n1cnc2c(N)nc(N)nc21)Oc1ccccc1 | - | >211 µM